Read-outs that look alike come from different tables or passages of the source.
Columns and labels:
[1] = test system: bloodstream forms of Trypanosoma brucei; assay: Resazurin cell viability assay, EC50 determinations against T. brucei; format: cell-based, T. b. brucei (strain 427); conditions: for Activity against T. brucei (in words): opioid receptor ligands
MRC5 cells = assay: Resazurin cell viability counter-screen, EC50 determinations against mammalian cells; format: cell-based; conditions: fold-specificity for T. brucei over human fibroblasts (MRC5)
[2] = Brain penetration after intravenous dosing; conditions: 2 mg kg−1 intravenous, 5 min post-dose
[3] = test system: T. b. brucei (strain 427); assay: Efficacy study in mice infected with T. b. brucei; conditions: 150 mg kg−1 orally every 4 h for 32 h, from 3 days after infection
[4] = Oral exposure (blood pharmacokinetics) and tolerability in uninfected mice
T. brucei = assay: Effect on T. brucei culture growth by direct cell counting (haemocytometer)
[5] = read-out: EC50 of opioid receptor ligands against T. brucei, purchased samples, weighted mean of 3 determinations, norbinaltorphimine max 50 μM due to solubility
[6] = read-out: EC50 vs. T. brucei, LOPAC hits (library screening), 3 days incubation, mean of 3 determinations weighted to standard error

CN(C(=O)Cc1ccc(Cl)c(Cl)c1)[C@H](CN1CCCC1)c1cccc(N=C=S)c1
EC50 [1, 5]: 4580 nM

CN(C(=O)Cc1ccccc1)C1CCC2(CCCO2)CC1N1CCCC1 (stereo not drawn)
Activity against T. brucei (in words) [1]: inactive | EC50 [1, 5]: > 100000 nM

CN(C(=O)Cc1ccc(Cl)c(Cl)c1)[C@@H]1CCCC[C@H]1N1CCCC1
EC99 (calculated/predicted from EC50 and Hill slope) ([1]; T. brucei growth inhibition): 740 nM | Potency against T. brucei relative to (−)-U50,488 ([1]; ratio of EC50 values): 70 times | EC50 ([1]; read-out: EC50 against T. brucei, authentic (+)-U50,488 sample, purchased authentic sample, mean weighted to standard error): 58.9 nM | EC50 [1, 6]: 59 nM | EC50 ([1]; read-out: EC50 vs. T. brucei, LOPAC hits (library screening), 3 days incubation, mean of 3 determinations weighted to standard error, listed as (+)-trans-(1R,2R)-U50,488): 60 nM | Selectivity (MRC5 cells): 270 | Brain to blood ratio [2]: 8.2 | Efficacy in infected mice [3]: not curative | Tolerability ([4]; 150 mg kg−1, oral route, uninfected mice): well tolerated | Half-life ([4]; free blood concentration, single oral dose 150 mg kg−1): 2.6 ± 0.04 h | Peak free blood concentration ([4]; single oral dose 150 mg kg−1): 800 ng/mL | Time of peak free blood concentration after dosing ([4]; single oral dose 150 mg kg−1): 1 h | Effect on T. brucei culture growth (T. brucei; 30 μM, 500 times EC50): cytocidal effect | Effect on T. brucei culture growth (T. brucei; 100 times the EC50): cytostatic

(±) trans-U-50488 methanesulfonate
EC50 [1, 6]: 113 nM

Oc1ccc2c3c1O[C@H]1c4[nH]c5c(c4C[C@@]4(O)[C@@H](C2)N(CC2CC2)CC[C@]314)C[C@@]1(O)[C@H]2Cc3ccc(O)c4c3[C@@]1(CCN2CC1CC1)[C@H]5O4
Activity against T. brucei (in words) [1]: complete lack of activity | EC50 [1, 5]: > 50000 nM

CN(C(=O)Cc1ccc(Cl)c(Cl)c1)[C@H]1CCCC[C@@H]1N1CCCC1
EC50 [1, 5]: 4110 nM

Source: article PMC3025325, “Identification of a κ-opioid agonist as a potent and selective lead for drug development against human African trypanosomiasis” (Biochemical Pharmacology, 2010)
